Measured values from several laboratories, pooled; numbers as filed in NIAID ChemDB.

Common to all: growth or infection tests; species: Mycobacterium tuberculosis

Lines come from different laboratories, so protocols vary. A number after MIC or MFC names an inhibition level or a share of isolates. Blank or dashed fields: not listed here. Inhibition is in % at the dose shown (toxicity tests: loss of growth or viability). MIC bound comes from a single tested concentration.

smiles,setting,changes,strain or isolate,read-out,read by,dose,result
CCC[C@@H]1C[C@@H](C(=O)N[C@@H]([C@H]2O[C@H](SC)[C@H](O)[C@@H](O)[C@H]2O)[C@H](C)Cl)N(C)C1,,,H37Ra,MIC,,,<64 µg/mL
CCCCCCCCOC1O[C@@H](C(O)COC2O[C@@H](C(O)CO)[C@H](O)[C@H]2O)[C@H](O)[C@H]1O,,,H37Ra,MIC,,,>128 µg/mL
Cc1c(NC(=O)C(C)Sc2nnc(-c3ccco3)n2C2CCCCC2)c(=O)n(-c2ccccc2)n1C,,,H37Rv,MIC,resazurin,,>6.25 µg/mL
CO[C@H]1/C=C/O[C@@]2(C)Oc3c(C)c(O)c4c(O)c(cc(N5CCCC(C)C5)c4c3C2=O)NC(=O)/C(C)=C\C=C\[C@H](C)[C@H](O)[C@@H](C)[C@@H](O)[C@@H](C)[C@H](OC(C)=O)[C@@H]1C,,,H37Rv,MIC,,,0.1 µg/mL
Cc1c(NC(=O)CSc2nnc(-c3ccco3)n2C)c(=O)n(-c2ccccc2)n1C,,,H37Rv,MIC,resazurin,,>6.25 µg/mL
CCCCCCCCCCC[C@H](CC(=O)[C@@H](CC(C)C)NC=O)CC1OC(=O)[C@H]1CCCCCC,,,,MIC99,,,20 µg/mL
CCCCCCCCOC1OC([C@H](CO)OC2O[C@@H](C(O)CO)[C@H](O)[C@H]2O)[C@H](O)[C@H]1O,,,H37Ra,MIC,,,>128 µg/mL
CC1(C2CCC3C4CCC5OC(=O)CCC5(C)C4CCC32C)SCCS1,,,H37Rv,inhibition,BACTEC,12.5 µg/mL,-32%
O=C(O)c1ccc(Nc2nnc(-c3ccncc3)s2)cc1O,,,H37Rv,inhibition,resazurin,12.5 µg/mL,90%
CC1(C)N=C(N)N=C(N)N1c1ccc(CCC(=O)Nc2ccc(S(=O)(=O)F)cc2)c(Cl)c1.CCS(=O)(=O)O,,,H37Rv,MIC bound,BACTEC,,>12.5 µg/mL
Cc1c(NC(=O)CSc2nnc(-c3ccco3)n2C2CCCCC2)c(=O)n(-c2ccccc2)n1C,,,H37Rv,MIC,resazurin,,>6.25 µg/mL
CC[C@@H](C)N1CCN(c2cc(=O)c3nc4c(oc3c2)c2c(=O)c3c(O)c(C)c5c(c34)=C(O)[C@@](C)(O/C=C/[C@H](OC)[C@@H](C)[C@@H](OC(C)=O)[C@H](C)[C@H](O)[C@H](C)[C@@H](O)[C@@H](C)/C=C/C=C(/C)C(=O)N2)O5)CC1,,,6 strains (rifampicin-resistant),MIC90,,,0.025 µg/mL
Cc1ccnc(NS(=O)(=O)c2ccc(NC(=S)Nc3ccc(C(=O)O)c(O)c3)cc2)n1,,,H37Rv,inhibition,resazurin,12.5 µg/mL,85%
CO[C@H]1/C=C/O[C@@]2(C)Oc3c(C)c(O)c4c(O)c(cc(N(C)Cc5ccccc5)c4c3C2=O)NC(=O)/C(C)=C\C=C\[C@H](C)[C@H](O)[C@@H](C)[C@@H](O)[C@@H](C)[C@H](OC(C)=O)[C@@H]1C,,,H37Rv,MIC,,,0.1 µg/mL
Cc1cc(C)nc(NS(=O)(=O)c2ccc(N)cc2)n1,,,H37Rv,MIC,,,64 µg/mL
CCCCCCCCO[C@H]1O[C@H](CO[C@H]2O[C@H](CO)[C@@H](O)[C@@H]2O)[C@@H](O)[C@@H]1O,,,H37Ra,MIC,,,>128 µg/mL
CCN(Cc1ccccc1)c1cc2c(O)c3c(O)c(C)c4c(c13)C(=O)[C@@](C)(O/C=C/[C@H](OC)[C@@H](C)[C@@H](OC(C)=O)[C@H](C)[C@H](O)[C@H](C)[C@@H](O)[C@@H](C)/C=C/C=C(/C)C(=O)N2)O4,,,H37Rv,MIC,,,0.1 µg/mL
O=C(O)c1ccc(-n2c(-c3ccncc3)n[nH]c2=S)cc1O,,,H37Rv,MIC90,broth dilution,,>12.5 µg/mL
CCCCCNC(=O)Nc1ccc(S(=O)(=O)Nc2cc(C)on2)cc1,14 d,,H37Rv,MIC100,broth dilution / absorbance,,250 µM
COc1cc(C2CC(=O)c3ccccc3O2)ccc1O,,,H37Rv,inhibition,BACTEC,128 µg/mL,100%
CO[C@H]1/C=C/O[C@@]2(C)Oc3c(C)c(O)c4c(O)c(cc(N5CCCCC5C)c4c3C2=O)NC(=O)/C(C)=C\C=C\[C@H](C)[C@H](O)[C@@H](C)[C@@H](O)[C@@H](C)[C@H](OC(C)=O)[C@@H]1C,,,H37Rv,MIC,,,0.05 µg/mL
Cl.NC1CC(=O)N(Cc2ccccc2)C1=O,,,H37Rv,inhibition,BACTEC,12.8 µg/mL,26%
CCCCCCCCO[C@H]1O[C@H](CO[C@H]2O[C@H](CO)[C@@H](O)[C@@H]2O)[C@@H](OC)[C@@H]1OC,,,H37Ra,MIC,,,>128 µg/mL
O=C1Oc2ccccc2C(=O)/C1=C1\C=C(c2ccccc2)SS1,,,H37Rv,MIC,BACTEC,,≥12.5 µg/mL
CO[C@H]1/C=C/O[C@@]2(C)Oc3c(C)c(O)c4c(O)c(cc(N(C)C)c4c3C2=O)NC(=O)/C(C)=C\C=C\[C@H](C)[C@H](O)[C@@H](C)[C@@H](O)[C@@H](C)[C@H](OC(C)=O)[C@@H]1C,,,H37Rv,MIC,,,0.05 µg/mL
C=C1C(=O)O[C@H]2C[C@@H]1C(=O)CC(C)CCC/C(C)=C/CC[C@@]2(C)O,,,H37Rv,MIC bound,BACTEC,,>12.5 µg/mL
CO[C@H]1/C=C/O[C@@]2(C)Oc3c(C)c(O)c4c(O)c(c(/C=N/N5CCN(C)CC5)c(O)c4c3C2=O)NC(=O)/C(C)=C\C=C\[C@H](C)[C@H](O)[C@@H](C)[C@@H](O)[C@@H](C)[C@H](OC(C)=O)[C@@H]1C,,Isoniazid-resistant,H37Rv,MIC,fluorescence,,<0.008 µg/mL
CO[C@H]1/C=C/O[C@@]2(C)Oc3c(C)c(O)c4c(=O)c(c5oc6cc(N7CCN(CC(C)C)CC7)cc(=O)c6nc5c4c3=C2O)NC(=O)/C(C)=C\C=C\[C@H](C)[C@H](O)[C@@H](C)[C@@H](O)[C@@H](C)[C@H](OC(C)=O)[C@@H]1C,,,16 strains (rifampicin-susceptible),MIC90,,,12.5 µg/mL
COc1ccc(C(=O)Nc2ccc(C(=O)N/N=C/c3ccc([N+](=O)[O-])o3)cc2)cc1,,,H37Rv,MIC,,,>6.25 µg/mL
CCOc1ccc(Nc2nc(C)c(C(=O)CC(=O)C(=O)Nc3ccc(Cl)c(C(F)(F)F)c3)s2)cc1,,,H37Rv,inhibition,BACTEC,12.5 µg/mL,23%
Cc1c(NC(=S)Nc2ccc(C(=O)O)c(O)c2)c(=O)n(-c2ccccc2)n1C,,,H37Rv,MIC90,broth dilution,,>12.5 µg/mL
COc1cccc(/C=N/NC(=O)C[N+](C)(C)C)c1OC,,,H37Rv,inhibition,BACTEC,12.5 µg/mL,-26%
CN1CCC(CN2c3ccccc3Sc3ccccc32)C1,,,K1,MIC,,,10 µg/mL
NC(CCC(=O)O)C(=O)NC(Cc1c[nH]c2ccccc12)C(=O)NC(CCC(=O)O)C(=O)O,,,H37Rv,MIC bound,BACTEC,,>12.5 µg/mL
COc1ccc(C(=O)Nc2ccc(C(=O)NN3C(=O)CSC3c3ccc(Br)cc3)cc2)cc1,,,H37Rv,inhibition,,6.25 µg/mL,11%
CCCCCCCCO[C@@H]1OC(C(CO[C@@H]2O[C@@H]([C@H](O)CO)[C@H](O)[C@H]2O)OC(C)=O)[C@H](OC(C)=O)[C@H]1OC(C)=O,,,H37Ra,MIC,,,>128 µg/mL
CCOc1cc(C2SCC(=O)N2NC(=O)c2ccc(NC(=O)c3ccc(OC)cc3)cc2)ccc1O,,,H37Rv,inhibition,,6.25 µg/mL,0%
Cc1c(NC(=O)CSc2nnc(-c3ccco3)n2-c2ccccc2)c(=O)n(-c2ccccc2)n1C,,,H37Rv,inhibition,resazurin,6.25 µg/mL,5%
C[C@]12CC/C(=N/NC(=O)c3ccncc3)C[C@@H]1CC[C@@H]1[C@@H]2CC[C@]2(C)[C@@H](O)CC[C@@H]12,,,H37Rv,MIC,resazurin,,≤0.1 µg/mL
COc1ccc(Nc2nnc(-c3ccc(NC(=O)c4ccc(OC)cc4)cc3)o2)cc1,,,H37Rv,MIC,,,>6.25 µg/mL
CC1COc2c(N3CCN(C)CC3)c(F)cc3c(=O)c(C(=O)O)cn1c23,clinical isolate,,Clinical isolate unspecified,MIC,resazurin,,0.6 µM
CO[C@H]1/C=C/O[C@@]2(C)Oc3c(C)c(O)c4c(O)c(cc(N5CCN(C)CC5)c4c3C2=O)NC(=O)/C(C)=C\C=C\[C@H](C)[C@H](O)[C@@H](C)[C@@H](O)[C@@H](C)[C@H](OC(C)=O)[C@@H]1C,,,H37Rv,MIC,,,0.1 µg/mL
CCCCCCCCO[C@H]1OC([C@@H](COC)O[C@H]2O[C@H]([C@@H](O)CO)[C@@H](O)[C@@H]2O)[C@@H](OC)[C@@H]1OC,,,H37Ra,MIC,,,>12.8 µg/mL
COc1cc(C)c2sc3ccccc3c(=O)c2c1NCCN(C)C.O=C(O)/C=C/C(=O)O,,,H37Rv,MIC,BACTEC,,6.25 µg/mL
COc1cnc2ccc(=O)n(CCN3CCC(NCc4cc(Cl)c(Cl)cn4)CC3)c2c1,,,CDC1551,MIC,resazurin,,0.04 µg/mL
CO[C@H]1/C=C/O[C@@]2(C)Oc3c(C)c(O)c4c(O)c(cc(O)c4c3C2=O)NC(=O)/C(C)=C\C=C\[C@H](C)[C@H](O)[C@@H](C)[C@@H](O)[C@@H](C)[C@H](OC(C)=O)[C@@H]1C,,,H37Rv,MIC,,,0.05 µg/mL
Cc1ccc(-n2c(SC(C)C(=O)Nc3c(C)n(C)n(-c4ccccc4)c3=O)nnc2-c2ccco2)cc1,,,H37Rv,MIC,resazurin,,>6.25 µg/mL
COc1ccn2nc(C)c(C(=O)NCc3ccc(-c4ccc(OC(F)(F)F)cc4)nc3)c2c1,,,H37Rv,MIC,fluorescence,,<0.02 µg/mL
Cc1cc(NS(=O)(=O)c2ccc(NC(=O)N3CCC3)cc2)no1,14 d,,H37Rv,MIC100,broth dilution / absorbance,,2 µM
C/C=C/C=C1\C=Cc2c(C(=O)OC)coc(=O)c21,,,H37Rv,inhibition,BACTEC,12.5 µg/mL,18%
CCCCCCCCO[C@@H]1O[C@@H]([C@H](COCc2ccccc2)O[C@H]2O[C@H](COCc3ccccc3)[C@@H](OCc3ccccc3)[C@@H]2OCc2ccccc2)[C@H](OCc2ccccc2)[C@H]1OCc1ccccc1,,,H37Ra,MIC,,,>128 µg/mL
CCCCCCNC(=O)Nc1ccc(S(=O)(=O)Nc2cc(C)on2)cc1,14 d,,H37Rv,MIC100,broth dilution / absorbance,,250 µM
O=C(NCOC(c1ccccc1)c1ccccc1)c1cccnc1,,,H37Rv,inhibition,BACTEC,12.5 µg/mL,-6%
CO[C@H]1/C=C/O[C@@]2(C)Oc3c(C)c(O)c4c(O)c(cc(N5CCOCC5)c4c3C2=O)NC(=O)/C(C)=C\C=C\[C@H](C)[C@H](O)[C@@H](C)[C@@H](O)[C@@H](C)[C@H](OC(C)=O)[C@@H]1C,,,H37Rv,MIC,,,0.1 µg/mL
CN(C)CN1C(=O)S/C(=C2\C(=O)N(CN(C)C)c3ccccc32)C1=O,,,H37Rv,MIC bound,BACTEC,,>12.5 µg/mL
CCCCCCCCCCNC(=O)Nc1ccc(S(=O)(=O)Nc2cc(C)on2)cc1,14 d,,H37Rv,MIC100,broth dilution / absorbance,,125 µM
CN1c2ccccc2C(=O)N2C(=O)CCC21C,,,H37Rv,MIC bound,BACTEC,,>12.5 µg/mL
O=C(O)c1ccc(NC(=O)C(F)(F)F)cc1O,,,H37Rv,inhibition,resazurin,12.5 µg/mL,92%
O=C1CCC2CCC(=O)N12,,,H37Rv,MIC,BACTEC,,≥12.8 µg/mL
COc1ccc(C(=O)Nc2ccc(C(=O)NN3C(=O)CSC3c3ccc(Cl)cc3)cc2)cc1,,,H37Rv,inhibition,,6.25 µg/mL,40%
CCOC(=O)C(Sc1ccccc1)c1c(OC)cc(=O)oc1[N+](=O)c1ccc(N(C)C)cc1,,,H37Rv,MIC bound,resazurin,,>6.25 µg/mL
CCN1C(=O)CS/C1=N\NC(=O)c1ccc(NC(=O)c2ccc(OC)cc2)cc1,,,H37Rv,inhibition,,6.25 µg/mL,0%
CCOC(=O)C(Nc1ccc(C)c(Cl)c1)C(=O)OCC,,,H37Rv,inhibition,BACTEC,12.5 µg/mL,3%
CCCCCC(CC(=O)N1N=CCCC1C(=O)N[C@H]1COC(=O)C2C[C@@H](C)CNN2C(=O)[C@H](C)NC(=O)[C@@H](CC(C)C)NC1=O)C(=O)O,,,H37Rv,MBC,,,25 µg/mL
C[C@@H](O)[C@H](NC(=O)OCc1ccccc1)C(=O)N[C@@H](CO)C(=O)NN,,,H37Rv,inhibition,BACTEC,12.8 µg/mL,3%
CCCCCCCCO[C@@H]1O[C@@H]([C@H](COC)O[C@H]2O[C@H](COCc3ccccc3)[C@@H](OCc3ccccc3)[C@@H]2OCc2ccccc2)[C@H](OC)[C@H]1OC,,,H37Ra,MIC,,,>128 µg/mL
CC(C)CC(NC(=O)C(CO)NC(=O)OCc1ccccc1)C(=O)NC(Cc1ccc(O)cc1)C(N)=O,,,H37Rv,MIC bound,BACTEC,,>12.5 µg/mL
Cc1c(NC(=O)C(C)Sc2nnc(-c3ccco3)n2-c2ccc(Cl)cc2)c(=O)n(-c2ccccc2)n1C,,,H37Rv,inhibition,resazurin,6.25 µg/mL,1%